Laboratory results: patent US20070099199A1
Where “and” joins values, the source holds several entries; their conditions need not be identical. Identical values can stand only once.

Biological target: HPV16 E6 C-terminal PDZ ligand (PL) peptide, biotinylated (human papillomavirus type 16)
Test: G assay ELISA; immobilised GST-PDZ, biotin-peptide 10 uM

Binder | Ave OD | OD S/N (ratio vs GST only)
GST-CASK PDZ domain 1 (protein) MSPILGYWKIKGLVQPTRLLLEYLEEKYEEHLYERDEGDKWRNKKFELGLEFPNLPYYIDGDVKLTQSMAIIRYIADKHNMLGGCPKERAEISMLEGAVLDIRYGVSRIAYSKDFETLKVDFLSKLPEMLKMFEDRLCHKTYLNGDHVTHPDFMLYDALDVVLYMDPMCLDAFPKLVCFKKRIEAIPQIDKYLKSSKYIAWPLQGWQATFGGGDHPPKSDLIEGRTRVRLVQFQKNTDEPMGITLKMNELNHCIVARIMHGGMIHRQGTLHVGDEIREINGISVANQTVEQLQKMLREMRGSITFKIVPSYRTQS | 0.36 A450 nm | 1.15
GST-KIAA0380 PDZ domain 1, clone #25.6 (protein) MSPILGYWKIKGLVQPTRLLLEYLEEKYEEHLYERDEGDKWRNKKFELGLEFPNLPYYIDGDVKLTQSMAIIRYIADKHNMLGGCPKERAEISMLEGAVLDIRYGVSRIAYSKDFETLKVDFLSKLPEMLKMFEDRLCHKTYLNGDHVTHPDFMLYDALDVVLYMDPMCLDAFPKLVCFKKRIEAIPQIDKYLKSSKYIAWPLQGWQATFGGGDHPPKSDLIEGRQRCVIIQKDQHGFGFTVSGDRIVLVQSVRPGGAAMKAGVKEGDRIIKVNGTMVTNSSHLEVVKLIKSGAYVALTLLGSS | 0.376 A450 nm | 1.95
GST-Numb Binding Protein PDZ domain 1 (protein) MSPILGYWKIKGLVQPTRLLLEYLEEKYEEHLYERDEGDKWRNKKFELGLEFPNLPYYIDGDVKLTQSMAIIRYIADKHNMLGGCPKERAEISMLEGAVLDIRYGVSRIAYSKDFETLKVDFLSKLPEMLKMFEDRLCHKTYLNGDHVTHPDFMLYDALDVVLYMDPMCLDAFPKLVCFKKRIEAIPQIDKYLKSSKYIAWPLQGWQATFGGGDHPPKSDLIEGRPDGEITSIKINRVDPSESLSIRLVGGSETPLVHIIIQHIYRDGVIARDGRLLPGDIILKVNGMDISNVPHNYAVRLLRQPCQVLWLTVMREQKFRSRNSS | 0.352 A450 nm | 3.17
GST-ZO-2 PDZ domain 2 (protein) MSPILGYWKIKGLVQPTRLLLEYLEEKYEEHLYERDEGDKWRNKKFELGLEFPNLPYYIDGDVKLTQSMAIIRYIADKHNMLGGCPKERAEISMLEGAVLDIRYGVSRIAYSKDFETLKVDFLSKLPEMLKMFEDRLCHKTYLNGDHVTHPDFMLYDALDVVLYMDPMCLDAFPKLVCFKKRIEAIPQIDKYLKSSKYIAWPLQGWQATFGGGDHPPKSDLIEGRRVLLMKSRANEEYGLRLGSQIFVKEMTRTGLATKDGNLHEGDIILKINGTVTENMSLTDARKLIEKSRGKLQLVVLRDS | 0.356 A450 nm | 2.15
GST-TIAM 2 PDZ domain 1 (protein) MSPILGYWKIKGLVQPTRLLLEYLEEKYEEHLYERDEGDKWRNKKFELGLEFPNLPYYIDGDVKLTQSMAIIRYIADKHNMLGGCPKERAEISMLEGAVLDIRYGVSRIAYSKDFETLKVDFLSKLPEMLKMFEDRLCHKTYLNGDHVTHPDFMLYDALDVVLYMDPMCLDAFPKLVCFKKRIEAIPQIDKYLKSSKYIAWPLQGWQATFGGGDHPPKSDLIEGRPLNVYDVQLTKTGSVCDFGFAVTAQVDERQHLSRIFISDVLPDGLAYGEGLRKGNEIMTLNGEAVSDLDLKQMEALFSEKSVGLTLIARPPDTKATL | 0.356 A450 nm | 2.05
GST-EZRIN Binding Protein 50 PDZ domain 1, clone #167.2 (protein) MSPILGYWKIKGLVQPTRLLLEYLEEKYEEHLYERDEGDKWRNKKFELGLEFPNLPYYIDGDVKLTQSMAIIRYIADKHNMLGGCPKERAEISMLEGAVLDIRYGVSRIAYSKDFETLKVDFLSKLPEMLKMFEDRLCHKTYLNGDHVTHPDFMLYDALDVVLYMDPMCLDAFPKLVCFKKRIEAIPQIDKYLKSSKYIAWPLQGWQATFGGGDHPPKSDLIEGRILCCLEKGPNGYGFHLHGEKGKLGQYIRLVEPGSPAEKAGLLAGDRLVEVNGENVEKETHQQVVSRIRAALNAVRLLVVDPEFIVTD | 0.381 A450 nm and 0.355 A450 nm | 1.94 and 2.28
GST-KIAA0561 PDZ domain 1 (protein) MSPILGYWKIKGLVQPTRLLLEYLEEKYEEHLYERDEGDKWRNKKFELGLEFPNLPYYIDGDVKLTQSMAIIRYIADKHNMLGGCPKERAEISMLEGAVLDIRYGVSRIAYSKDFETLKVDFLSKLPEMLKMFEDRLCHKTYLNGDHVTHPDFMLYDALDVVLYMDPMCLDAFPKLVCFKKRIEAIPQIDKYLKSSKYIAWPLQGWQATFGGGDHPPKSDLIEGRLCGSLRPPIVIHSSGKKYGFSLRAIRVYMGDSDVYTVHHVVWSVEDGSPAQEAGLRAGDLITHINGESVLGLVHMDVVELLLKSGNKISLRTTALENTSIKVG | 0.347 A450 nm | 2.44
GST-GTPase Activating Enzyme PDZ domain 1 (protein) MSPILGYWKIKGLVQPTRLLLEYLEEKYEEHLYERDEGDKWRNKKFELGLEFPNLPYYIDGDVKLTQSMAIIRYIADKHNMLGGCPKERAEISMLEGAVLDIRYGVSRIAYSKDFETLKVDFLSKLPEMLKMFEDRLCHKTYLNGDHVTHPDFMLYDALDVVLYMDPMCLDAFPKLVCFKKRIEAIPQIDKYLKSSKYIAWPLQGWQATFGGGDHPPKSDLIEGRSRGCETRELALPRDGQGRLGFEVDAEGFVTHVERFTFAETAGLRPGARLLRVCGQTLPSLRPEAAAQLLRSAPKVCVTVLPPDESGRP | 0.35 A450 nm | 1.12
GST-ERBIN PDZ domain 1 (protein) MSPILGYWKIKGLVQPTRLLLEYLEEKYEEHLYERDEGDKWRNKKFELGLEFPNLPYYIDGDVKLTQSMAIIRYIADKHNMLGGCPKERAEISMLEGAVLDIRYGVSRIAYSKDFETLKVDFLSKLPEMLKMFEDRLCHKTYLNGDHVTHPDFMLYDALDVVLYMDPMCLDAFPKLVCFKKRIEAIPQIDKYLKSSKYIAWPLQGWQATFGGGDHPPKSDLIEGRQGHELAKQEIRVRVEKDPELGFSISGGVGGRGNPFRPDDDGIFVTRVQPEGPASKLLQPGDKIIQANGYSFINIEHGQAVSLLKTFQNTVELIIVREVSS | 0.36 A450 nm and 0.342 A450 nm | 1.82 and 1.3
GST-Shroom PDZ domain 1 (protein) MSPILGYWKIKGLVQPTRLLLEYLEEKYEEHLYERDEGDKWRNKKFELGLEFPNLPYYIDGDVKLTQSMAIIRYIADKHNMLGGCPKERAEISMLEGAVLDIRYGVSRIAYSKDFETLKVDFLSKLPEMLKMFEDRLCHKTYLNGDHVTHPDFMLYDALDVVLYMDPMCLDAFPKLVCFKKRIEAIPQIDKYLKSSKYIAWPLQGWQATFGGGDHPPKSDLIEGRIYLEAFLEGGAPWGFTLKGGLEHGEPLIISKVEEGGKADTLSSKLQAGDEVVHINEVTLSSSRKEAVSLVKGSYKTLRLVVRRDVCTDPGH | 0.361 A450 nm | 3.25
GST-MAGI1 PDZ domain 3 (protein) MSPILGYWKIKGLVQPTRLLLEYLEEKYEEHLYERDEGDKWRNKKFELGLEFPNLPYYIDGDVKLTQSMAIIRYIADKHNMLGGCPKERAEISMLEGAVLDIRYGVSRIAYSKDFETLKVDFLSKLPEMLKMFEDRLCHKTYLNGDHVTHPDFMLYDALDVVLYMDPMCLDAFPKLVCFKKRIEAIPQIDKYLKSSKYIAWPLQGWQATFGGGDHPPKSDLIEGRPATQPELITVHIVKGPMGFGFTIADSPGGGGQRVKQIVDSPRCRGLKEGDLIVEVNKKNVQALTHNQVVDMLVECPKGSEVTLLVQRGGNLS | 0.354 A450 nm | 1.46
GST-KIAA0973 PDZ domain 1, clone #148.5 (protein) MSPILGYWKIKGLVQPTRLLLEYLEEKYEEHLYERDEGDKWRNKKFELGLEFPNLPYYIDGDVKLTQSMAIIRYIADKHNMLGGCPKERAEISMLEGAVLDIRYGVSRIAYSKDFETLKVDFLSKLPEMLKMFEDRLCHKTYLNGDHVTHPDFMLYDALDVVLYMDPMCLDAFPKLVCFKKRIEAIPQIDKYLKSSKYIAWPLQGWQATFGGGDHPPKSDLIEGRGLRSPITIQRSGKKYGFTLRAIRVYMGDTDVYSVHHIVWHVEEGGPAQEAGLCAGDLITHVNGEPVHGMVHPEVVELILKSGNKVAVTTTPFE | 0.378 A450 nm | 1.68
GST-X-11 beta PDZ domain 1 (protein) MSPILGYWKIKGLVQPTRLLLEYLEEKYEEHLYERDEGDKWRNKKFELGLEFPNLPYYIDGDVKLTQSMAIIRYIADKHNMLGGCPKERAEISMLEGAVLDIRYGVSRIAYSKDFETLKVDFLSKLPEMLKMFEDRLCHKTYLNGDHVTHPDFMLYDALDVVLYMDPMCLDAFPKLVCFKKRIEAIPQIDKYLKSSKYIAWPLQGWQATFGGGDHPPKSDLIEGRIHFSNSENCKELQLEKHKGEILGVVVVESGWGSILPTVILANMMNGGPAARSGKLSIGDQIMSINGTSLVGLPLATCQGIIKGLKNQTQVKLNIVSCPPVTTVLIKRNSS | 0.352 A450 nm | 2.02
GST-INADL PDZ domain 8 (protein) MSPILGYWKIKGLVQPTRLLLEYLEEKYEEHLYERDEGDKWRNKKFELGLEFPNLPYYIDGDVKLTQSMAIIRYIADKHNMLGGCPKERAEISMLEGAVLDIRYGVSRIAYSKDFETLKVDFLSKLPEMLKMFEDRLCHKTYLNGDHVTHPDFMLYDALDVVLYMDPMCLDAFPKLVCFKKRIEAIPQIDKYLKSSKYIAWPLQGWQATFGGGDHPPKSDLIEGRPATCPIVPGQEMIIEISKGRSGLGLSIVGGKDTPLNAIVIHEVYEEGAAARDGRLWAGDQILEVNGVDLRNSSHEEAITALRQTPQKVRLVVY | 0.388 A450 nm | 1.58
GST-KIAA0147 PDZ domain 2 (protein) MSPILGYWKIKGLVQPTRLLLEYLEEKYEEHLYERDEGDKWRNKKFELGLEFPNLPYYIDGDVKLTQSMAIIRYIADKHNMLGGCPKERAEISMLEGAVLDIRYGVSRIAYSKDFETLKVDFLSKLPEMLKMFEDRLCHKTYLNGDHVTHPDFMLYDALDVVLYMDPMCLDAFPKLVCFKKRIEAIPQIDKYLKSSKYIAWPLQGWQATFGGGDHPPKSDLIEGRPLRQRHVACLARSERGLGFSIAGGKGSTPYRAGDAGIFVSRIAEGGAAHRAGTLQVGDRVLSINGVDVTEARHDHAVSLLTAASPTIALLLEREAGG | 0.374 A450 nm | 2.46
GST-INADL PDZ domain 4 (protein) MSPILGYWKIKGLVQPTRLLLEYLEEKYEEHLYERDEGDKWRNKKFELGLEFPNLPYYIDGDVKLTQSMAIIRYIADKHNMLGGCPKERAEISMLEGAVLDIRYGVSRIAYSKDFETLKVDFLSKLPEMLKMFEDRLCHKTYLNGDHVTHPDFMLYDALDVVLYMDPMCLDAFPKLVCFKKRIEAIPQIDKYLKSSKYIAWPLQGWQATFGGGDHPPKSDLIEGRNSDDAELQKYSKLLPIHTLRLGVEVDSFDGHHYISSIVSGGPVDTLGLLQPEDELLEVNGMQLYGKSRREAVSFLKEVPPPFTLVCCRRLFDDEAS | 0.357 A450 nm | 2.15
